According to paper PMC9603946, “On the Sensitivity of the Virion Envelope to Lipid Peroxidation” (Microbiology Spectrum, 2022):
Marks after values point to notes of the source that are not given here.

How the values were obtained:
HSV-1 [1] = assay: HSV-1 virion infectivity (plaquing efficiency) on Vero cells after virion pretreatment; details: BSA present together with peroxidator, 2 h at 37°C
Description: (§1) The inocula were removed, and the cells were washed and then incubated at 37°C in 5% CO2 until plaques were visible and well-resolved (about 2 days), at which time they were fixed and stained with crystal violet.
(§2) HSV-1 suspensions of 20,000 plaque PFU in 250 μL DMEM were mixed 1:1 with 2-fold serial dilutions of the general peroxidators and were incubated in a water bath for 2 h at 37°C. Next, treated virions were diluted 1:100 before being adsorbed onto cells for 1 h at 37°C. The inocula were removed, and the cells were washed twice with cold DMEM. Infected cells were overlaid with DMEM supplemented with 2% (Vero) or 1% (HFF) methylcellulose and 5% FBS and were incubated at 37°C until plaques were visible and well-resolved, typically in about 2 days. Cell monolayers were fixed and stained with 1% crystal violet in 17% methanol for 18 h at RT. The cells were washed, and the plaques were counted and normalized to those produced by the vehicle treated virions.
(§3) To test the effects of lipid soluble antioxidants on virions, 10 μM vitamin E loaded onto 1% carrier BSA in the dark for 4.5 h at RT was incubated with 10^6 HSV-1 virions for 3 h at 37°C. […] The treated virions were diluted 1:100 before infecting cells. […] The mix was incubated for 2 h at 37°C, diluted 1:100, and used to infect cells. The infectivity of an aliquot of treated virions was tested via a plaque assay.

HSV-1 [2] = assay: HSV-1 virion infectivity (plaquing efficiency) on HFF cells after virion pretreatment
Description: as §1, §2, §3

HSV-1 virions = assay: HSV-1 virion lipid peroxidation probed with C11-Bodipy; parameters: species or system HSV-1 KOS; details: Bodipy probe
Description: (§4) The effects of peroxidators have been commonly evaluated against purified lipids and liposomes as a proxy, but they have not been evaluated against virions ([50], [53][–][55]). We instead directly evaluated the extent of virion lipid peroxidation.
To evaluate virion lipoperoxidation with C11-Bodipy, 50 μL DMEM containing 5 × 10^6 PFU of HSV-1 was added into each well of 96-well plates. Virions were then preloaded with 0.1 mol % of C11-Bodipy for 30 min at 37°C. […] Fluorescence was evaluated in a TECAN Infinite M200 Pro at 550 nm excitation and 580 to 630 nm emission with the reading peak at 600 nm.
(§5) To evaluate the effects of a lipid soluble antioxidant, cells or virions were preloaded with vitamin E-BSA for 3 h at 37°C. Vitamin E-BSA containing medium was removed, and the cells were washed twice with DMEM. Liperfluo (20 or 10 μM for cells or virions, respectively) or C11-Bodipy (1 μM for cells or 0.1 mol% for virions) were preloaded into the cells or virions for 30 min at 37°C.
(§6) To evaluate the effects of water soluble antioxidants, liperfluo (20 μM for cells or 10 μM for virions) or C11-Bodipy (1 μM for cells or 0.1 mol% for virions) were preloaded into the cells or virions for 30 min at 37°C. […] Fluorescence was evaluated in a TECAN Infinite M200 Pro at 515 nm excitation and 545 nm emission for liperfluo or at 550 nm excitation and 580 to 630 nm emission for C11-Bodipy.

Vero cells = assay: Vero cell lipid peroxidation probed with liperfluo; assay type: cell-based, African green monkey; details: Liperfluo probe
Description: as §4
To evaluate cell lipid peroxidation using liperfluo, 7.5 × 10^3 Vero cells were seeded into each well of 96-well plates and incubated for 18 h at 37°C in 5% CO2. […] Two hours later, the cells were washed twice, and the fluorescence was evaluated in a TECAN Infinite M200 Pro at 515 nm excitation and 545 nm emission.
as §5, §6

Row | SMILES | fold increase of EC50 by carrier BSA (HSV-1 [1]) | PI (cells)/PI (virus) (HSV-1 [2]; vitamin C) | PI, EC50 (antioxidant)/EC50 (HSV-1 [2]; vitamin C) | PI (cells)/PI (virus) (HSV-1 [2]; vitamin E) | PI, EC50 (antioxidant)/EC50 (HSV-1 [2]; vitamin E) | LPI, CP50/VP50 (HSV-1 virions; no antioxidant) | LPI, CP50/VP50 (HSV-1 virions; vitamin C) | LPP of LPI row, LPI(virus)/LPI(cell) (HSV-1 virions; vitamin C) | LPP, VP50 (antioxidant)/VP50 (HSV-1 virions; vitamin C) | LPI, CP50/VP50 (HSV-1 virions; vitamin E) | LPP of LPI row, LPI(virus)/LPI(cell) (HSV-1 virions; vitamin E) | LPP, VP50 (antioxidant)/VP50 (HSV-1 virions; vitamin E) | LPP, CP50 (antioxidant)/CP50 (Vero cells; vitamin E) | LPP, CP50 (antioxidant)/CP50 (Vero cells; vitamin C)
1 | CC(C)CC(C)(C#N)N=NC(C)(C#N)CC(C)C (stereo not shown) [AMVN, 2,2′-azobis(2,4-dimethylvaleronitrile)] | 4 fold | 0.7 | 1.3 | 0.4 | 2.5 | 0.8 | 0.9 | 1.1 | 0.7 | 1.5 | 1.9^f | 0.9^e | 1.3 | 
2 | CC(C)(N=NC(C)(C)C(=N)N)C(=N)N.Cl.Cl [AAPH, 2,2′-azobis(2-methylpropionamidine) dihydrochloride] | 2 fold | 0.2 |  | 0.4 | 1.3 ^* |  |  |  |  |  |  |  | 1.0 | 1.0
